Assay results taken from patent US20150218142A1, “Derivatives of Betulin” (GlaxoSmithKline LLC, priority 2011, published 2015).

Test system: HIV

| Compound | Human Serum Fold Shift (40% human serum in a HIV multicell full life cycle assay) [X] | fold shift with human serum (human protein shift, human serum (HS)) [fold] | Fold shift with 40% HuS (LHIV IC50 with vs without 40% human serum) [fold] |
| --- | --- | --- | --- |
| CC(C)C1=C2[C@H]3CC[C@@H]4[C@@]5(C)CC[C@H](OC(=O)CC(C)(C)C(=O)O)C(C)(C)[C@@H]5CC[C@@]4(C)[C@]3(C)CC[C@@]2(C(=O)C(=O)N(CCN(C)C)Cc2ccc(Cl)cc2)CC1=O [Compound C] | 48.9 | 48.9 | – |
| CC(C)C1=C2[C@H]3CC[C@@H]4[C@@]5(C)CC[C@H](OC(=O)CC(C)(C)C(=O)O)C(C)(C)[C@@H]5CC[C@@]4(C)[C@]3(C)CC[C@@]2(C(=O)C(=O)NC2(c3ncc(Cl)cn3)CC2)CC1=O [CompoundB] | – | – | 13.4 |
